Publication PMC7392676 (BMC Microbiology, 2020)

How the values were obtained:
Xff strain Temecula [1] = assay type: cell-based, Xylella fastidiosa subsp. fastidiosa
Xff strain Temecula [2] = tested on: Xff strain Temecula
[3] = tested on: Xanthomonas axonopodis pv. vesicatoria; conditions: cited from earlier work
[4] = tested on: Pseudomonas syringae pv. syringae; conditions: cited from earlier work
Erwinia amylovora = conditions: cited from earlier work

SMILES | classification of activity against Xf (discussion) (Xff strain Temecula [1]) | reduction of cell viability (Xff strain Temecula [1]) | reduction of viability (Xff strain Temecula [1]) | cell culturability reduction (Xff strain Temecula [2]) | culturability of cells mixed with the peptide (Xff strain Temecula [2]) | MIC Xav [3] [µM] | MIC Psa [4] [µM] | MIC Ea (Erwinia amylovora) [µM] | Xff viable cells after treatment (in words) (Xff strain Temecula [1]) | activity class against Xff at different peptide concentrations (Xff strain Temecula [1]) | Xff culturable cells after treatment (in words) (Xff strain Temecula [2]) | activity class against Xff at different peptide concentrations (Xff strain Temecula [2]) | minimal bactericidal concentration (MBC) (Xff strain Temecula [2]) [µg/mL] | minimal bactericidal concentration (MBC) (Xff strain Temecula [2]; 48 h) [µM]
CC[C@H](C)[C@H](NC(=O)CNC(=O)[C@H](C)NC(=O)[C@@H]1CCCN1C(=O)CNC(=O)[C@H](C)NC(=O)[C@H](CC(C)C)NC(=O)[C@H](Cc1ccc(O)cc1)NC(=O)[C@H](CCCCN)NC(=O)[C@H](CC(C)C)NC(=O)[C@@H](NC(=O)[C@H](CCCCN)NC(=O)[C@H](CCCCN)NC(=O)[C@H](Cc1ccccc1)NC(=O)[C@H](CC(C)C)NC(=O)[C@H](CCCCN)NC(=O)[C@@H](N)CCCCN)[C@@H](C)CC)C(=O)NCC(=O)N[C@@H](CCCCN)C(=O)N[C@@H](Cc1ccccc1)C(=O)N[C@@H](CC(C)C)C(=O)N[C@@H](Cc1c[nH]cn1)C(=O)N[C@@H](CO)C(=O)N[C@@H](C)C(=O)N[C@@H](CCCCN)C(=O)N[C@@H](CCCCN)C(=O)N[C@@H](CC(=O)O)C(=O)N[C@@H](CCC(=O)O)C(=O)N[C@@H](CC(C)C)C(=O)O [BP178] | highly active | around 3 log | around 3 log | around 5 log | dropped abruptly to levels near the detection limit | 2.5 to 5.0 | 2.5 to 5.0 | 2.5 to 5.0 | – | – | – | – | – | –
CC[C@H](C)[C@H](NC(=O)[C@H](CC(C)C)NC(=O)[C@H](C)NC(=O)[C@@H]1CCCN1C(=O)[C@H](CC(C)C)NC(=O)CNC(=O)[C@@H](NC(=O)[C@@H](NC(=O)[C@H](C)NC(=O)[C@@H]1CCCN1C(=O)CNC(=O)[C@H](C)NC(=O)[C@H](CC(C)C)NC(=O)[C@H](Cc1ccc(O)cc1)NC(=O)[C@H](CCCCN)NC(=O)[C@H](CC(C)C)NC(=O)[C@@H](NC(=O)[C@H](CCCCN)NC(=O)[C@H](CCCCN)NC(=O)[C@H](Cc1ccccc1)NC(=O)[C@H](CC(C)C)NC(=O)[C@H](CCCCN)NC(=O)[C@@H](N)CCCCN)[C@@H](C)CC)[C@@H](C)O)[C@@H](C)O)C(=O)N[C@@H](CO)C(=O)N[C@@H](Cc1c[nH]c2ccccc12)C(=O)O [BP171] | highly active | – | – | – | – | 2.5 to 5.0 | 1.25 to 2.5 | 2.5 to 5.0 | reached the detection limit | highly active | reached the detection limit | highly active | 5 to 10 | 1.5 to 3.1

Like-named read-outs stand apart in the source and are kept apart here.
